In PMC12121772:
For at least one entry, the source does not settle the construct or the ends of the probe. For part of these data: A negative result means that nothing was seen under these conditions.

Key:
[1] = system: NSs2 (Recilia dorsalis bunyavirus (RdBV)); assay: EMSA; conditions: EMSA: 5x binding buffer printed as 1 M Tris-HCl pH 7.5, 5 M NaCl, 1 M KCl, 1 M MgCl2, 0.5 M EDTA pH 8.0, 10 mg/ml BSA (likely stock concentrations), recombinant protein
RdMYC (Recilia dorsalis) = assay: EMSA; conditions: EMSA: 5x binding buffer printed as 1 M Tris-HCl pH 7.5, 5 M NaCl, 1 M KCl, 1 M MgCl2, 0.5 M EDTA pH 8.0, 10 mg/ml BSA (likely stock concentrations); recombinant protein; label: Cy5

Sequence	binding result ([1]; label: Cy5)	binding result (RdMYC (Recilia dorsalis))	binding result [1]
TTTGGCGCCCTCTATCTTGTGCGCCCCCGGGCACGTGCCCAGTGTGCCCA (double strand) [RdSina promoter P3 probe]	binds	binds	–
TTTGGCGCCCTCTATCTTGTGCGCCCCCGGGCAAAAACCCAGTGTGCCCA (double strand) [P3mutant (CACGTG to CAAAAA)]	–	–	no binding
